Compound potency records, mixed from different reports. Data source: NIAID ChemDB in PubChem.

Common to all: tests on isolated targets; species: HIV-1; protein: Reverse transcriptase; read-out: IC50

Conditions beyond the fields shown may differ between rows. Blank or dashed fields: not listed here. ICn is the concentration giving n% inhibition.

{"SMILES": "Cc1cn(CCC[Si](C)(O)c2ccccc2)c(=O)[nH]c1=O", "result": ">2000 µM"}
{"SMILES": "COc1cc(/C=C/C(=O)O)ccc1O", "result": ">100 µM"}
{"SMILES": "CCc1cn([C@H]2CC[C@@H](COP(=O)(O)OP(=O)(O)OP(=O)(O)O)O2)c(=O)[nH]c1=O", "strain": "LAV", "result": "0.116 µM"}
{"SMILES": "CCn1c(C)c(C(=O)OC)c(C(=O)OC)c1Cc1ccccc1", "strain": "G910-6", "result": "0.74 µM"}
{"SMILES": "CCC(=O)c1ccc(F)c([C@H]2C[C@H]2NC(=O)Nc2ccc(Br)cn2)c1O", "mutations": "RT-L100I", "strain": "IIIB", "result": "0.014 µM"}
{"SMILES": "COc1oc([C@H]2CC/C(=C/C(C)=C/c3ccc([N+](=O)[O-])cc3)O2)c(C)c(=O)c1C", "result": "132 µg/mL"}
{"SMILES": "Nc1ncnc2c1ncn2[C@@H]1O[C@H](COP(=O)([O-])O[C@@H]2C[C@@H](COP(=O)([O-])O[C@@H]3C[C@@H](COP(=O)([O-])O)O[C@H]3n3cnc4c(N)ncnc43)O[C@H]2n2cnc3c(N)ncnc32)C[C@H]1O", "strain": "IIIB", "result": ">10 µM"}
{"SMILES": "CC(=O)OC1=C(C[C@]2(C)[C@@H](C)CC[C@]3(C)C(C)=CCC[C@@H]23)C(=O)C=CC1=O", "result": ">50 µg/mL"}
{"SMILES": "O=C(CCCCC(=O)Nc1ccccc1C(=O)O)Nc1ccccc1", "result": ">100 µg/mL"}
{"SMILES": "Nc1ncnc2c1ncn2[C@@H]1O[C@H](COP(=O)([O-])O[C@@H]2C[C@@H](COP(=O)([O-])O[C@@H]3C[C@@H](COP(=O)([O-])O)O[C@H]3n3cnc4c(N)ncnc43)O[C@H]2n2cnc3c(N)ncnc32)[C@@H](O)[C@H]1O", "strain": "IIIB", "result": ">10 µM"}
{"SMILES": "CCN1C(=O)c2cc(Cl)nnc2N(C2CC2)c2ccccc21", "result": "~330 µM"}
{"SMILES": "O=[N+]([O-])c1ccccc1S(=O)(=O)c1ccccc1", "result": "19 µM"}
{"SMILES": "Cc1cc(C)c(Nc2ccnc(Nc3ccc(C#N)cc3)n2)c(C)c1", "strain": "IIIB", "result": "0.024 µM"}
{"SMILES": "CC1=CCC[C@H]2[C@](C)(CC3=C(O)C(=O)C(=O)C=C3O)[C@@H](C)CC[C@]12C", "result": "5 µg/mL"}
{"SMILES": "CCCN1C(=O)c2cc(Cl)nnc2N(CC)c2ccc(C)cc21", "result": ">330 µM"}
{"SMILES": "CC(=O)Oc1ccc2c(c1OC(C)=O)C(=O)c1ccccc1C2=O", "result": ">100 µM"}
{"SMILES": "O=C(O)CCc1ccc(O)cc1", "result": ">100 µM"}
{"SMILES": "C[Si](O)(CCCn1cnc2c(N)ncnc21)c1ccccc1", "result": "2000 µM"}
{"SMILES": "CCCN1C(=O)c2ccnnc2N(CCC)c2ccc(C)cc21", "result": ">330 µM"}
{"SMILES": "COc1cc(O)c2c(=O)cc(-c3cc(O)c(OC)c(OC)c3)oc2c1", "result": ">5.9 µg/mL"}
{"SMILES": "CN(CC(=O)Nc1ccc(Br)cc1C(=O)O)CC(=O)Nc1ccc(Br)cc1C(=O)O", "result": ">100 µg/mL"}
{"SMILES": "[N-]=[N+]=N[C@H]1C[C@H](n2ccc(=O)[nH]c2=O)O[C@@H]1COP(=O)(O)OP(=O)(O)OP(=O)(O)O", "strain": "LAV", "result": "0.0096 µM"}
{"SMILES": "CC(=O)Oc1c(OCC(=O)c2ccc(-c3ccccc3)cc2)ccc2c1C(=O)c1ccccc1C2=O", "mutations": "K103N", "result": "9 µM"}
{"SMILES": "O=c1c(O[C@@H]2O[C@H](CO)[C@@H](O)[C@H](O)[C@H]2O)c(-c2ccc(O)c(O)c2)oc2cc(O)cc(O)c12", "result": ">1000 µM"}
{"SMILES": "CC(=O)COc1ccc2c(c1OC(C)=O)C(=O)c1ccccc1C2=O", "result": ">100 µM"}
{"SMILES": "C[Si](C)(CCCNC(=O)c1ccccc1N)O[Si](C)(C)CCCNC(=O)c1ccccc1N", "result": "125 µM"}
{"SMILES": "CCCCN1C(=O)c2ccnnc2N(C2CC2)c2ccccc21", "result": ">330 µM"}
{"SMILES": "Nc1ncnc2c1ncn2C1OC(COP(=O)(O)OC2CC(COP(=O)(O)OC3CC(CO)OC3n3cnc4c(N)ncnc43)OC2n2cnc3c(N)ncnc32)CC1O", "strain": "IIIB", "result": ">10 µM"}
{"SMILES": "CC(C)=CCOc1cc(NC(=S)c2ccoc2C)ccc1Cl", "mutations": "RT-M184V", "result": "4.2 µM"}
{"SMILES": "Nc1ncnc2c1ncn2[C@@H]1O[C@H](COP(=O)([O-])O[C@@H]2C[C@@H](COP(=O)([O-])O)O[C@H]2n2cnc3c(N)ncnc32)[C@@H](O)[C@H]1OP(=O)([O-])OC[C@@H]1C[C@@H](O)[C@H](n2cnc3c(N)ncnc32)O1", "strain": "IIIB", "result": ">10 µM"}
{"SMILES": "CCCN1c2ccccc2N(CC)C(=O)c2ccnnc21", "result": "<330 µM"}
{"SMILES": "CC1=CCC[C@H]2[C@](C)(Cc3c(O)ccc(O)c3O)[C@@H](C)CC[C@]12C", "result": "4.5 µg/mL"}
{"SMILES": "Nc1ncnc2c1ncn2C1OC(COP(=O)(O)OC2CC(COP(=O)(O)OC3C(O)C(CO)OC3n3cnc4c(N)ncnc43)OC2n2cnc3c(N)ncnc32)CC1O", "strain": "IIIB", "result": ">10 µM"}
{"SMILES": "O=C(CCCCC(=O)Nc1ccc(Br)cc1)Nc1ccccc1", "result": ">100 µg/mL"}
{"SMILES": "C=C1C(=O)O[C@@H]2C[C@@H]3[C@]4(CC[C@]5(C)[C@@H]([C@H](C)CC/C=C(\\C)C=O)CC[C@@]35C)C[C@]4(CCC(=O)O)[C@H]12", "result": "17 µg/mL"}
{"SMILES": "O=C(Oc1ccc2c(c1OC(=O)c1ccccc1)C(=O)c1ccccc1C2=O)c1ccccc1", "mutations": "K103N", "result": "28 µM"}
{"SMILES": "Cc1cn(CCC[Si](C)(C)O[Si](C)(C)CCCn2cc(C)c(=O)[nH]c2=O)c(=O)[nH]c1=O", "result": "2000 µM"}
{"SMILES": "COc1cc(O)c2c(=O)cc(-c3cc(O)c(OC)c(O)c3)oc2c1", "result": ">12.1 µg/mL"}
{"SMILES": "CC(C)=CCOc1cc(NC(=S)c2ccsc2C)ccc1Cl", "mutations": "RT-Y188L", "result": "35 µM"}
{"SMILES": "CCCCN1C(=O)c2cc(Cl)nnc2N(C2CC2)c2ccccc21", "result": ">330 µM"}
{"SMILES": "Nc1ncnc2c1ncn2[C@@H]1O[C@H](COP(=O)(O)O[C@@H]2[C@H](O)[C@@H](COP(=O)(O)O[C@@H]3[C@H](O)[C@@H](CO)O[C@H]3n3cnc4c(N)ncnc43)O[C@H]2n2cnc3c(N)ncnc32)[C@@H](O)[C@H]1O", "strain": "IIIB", "result": ">10 µM"}
{"SMILES": "CC(=O)COc1ccc2c(c1OCC(C)=O)C(=O)c1ccccc1C2=O", "result": "14 µM"}
{"SMILES": "CCn1c(=O)c(C)cn([C@@H]2O[C@H](CO[Si](C)(C)C(C)(C)C)C3(OS(=O)(=O)C=C3N)[C@H]2O[Si](C)(C)C(C)(C)C)c1=O", "mutations": "RT-E138K(P66)", "result": "44.7 µM"}

4 of the rows above, restated:

SMILES | mutations | strain | result
C[Si](O)(CCCn1cnc2c(N)ncnc21)c1ccccc1 | - | - | 2000 µM
CCn1c(=O)c(C)cn([C@@H]2O[C@H](CO[Si](C)(C)C(C)(C)C)C3(OS(=O)(=O)C=C3N)[C@H]2O[Si](C)(C)C(C)(C)C)c1=O | RT-E138K(P66) | - | 44.7 µM
C[Si](C)(CCCNC(=O)c1ccccc1N)O[Si](C)(C)CCCNC(=O)c1ccccc1N | - | - | 125 µM
CC(=O)COc1ccc2c(c1OC(C)=O)C(=O)c1ccccc1C2=O | - | - | >100 µM